The values that follow are results of earlier work, collected in US11913031B2, “Method to reproduce circadian rhythms on a microfluidic chip” (Yissum Research Development Company of the Hebrew …, priority 2017, dated 2024).

The test system of the data set is liver. Particulars: Table 4 compound list, toxicological end-point; cited from earlier work.

Take Aflatoxin B1: the Toxicity result is recorded as “Apoptosis”.
